Data: paper PMC9481026 (PLoS ONE, 2022)

test system: HepDES19; details: ratio CC50 / EC50

With `Cc1cc(O)c(=O)c(O)cc1C(=O)NCc1ccccc1` [Compound 388] as the compound, how does the “SI HepDES19” value read?
Its value is 2.2.

With `Cc1cc(O)c(=O)c(O)cc1C(=O)N1CCN(C(c2ccc(F)cc2)c2ccc(F)cc2)CC1` [Compound 1017] as the compound, how does the “SI HepDES19” value read?
The value was under 1.0.

With `CC(=O)c1c(C)cc(O)c(=O)c(O)c1Br` [Compound 320] as the compound, how does the “SI HepDES19” value read?
Its value is 1.5.

How did the “SI HepDES19” value turn out when `CC(=O)c1c(C)cc(O)c(=O)c(O)c1-c1ccccc1` [Compound 330] was run?
The value was 5.4.

For `Cc1ccc(/C=C/C(=O)c2ccccc(=O)c2O)cc1` [Compound 340], which “SI HepDES19” value is on record?
Its value is 0.7.

Which “SI HepDES19” value does the source give for `COC(=O)c1c(C)cc(O)c(=O)c(O)c1O` [Compound 196] here?
The value was 0.251.

How did the “SI HepDES19” value turn out when `Cc1cc(O)c(=O)c(O)c(O)c1C(=O)c1ccc(-c2ccccc2)cc1` [Compound 362] was run?
Its value is 2.1.

Which “SI HepDES19” value does the source give for `O=C(/C=C/c1cccc(Br)c1)c1ccccc(=O)c1O` [Compound 341] here?
The value was 0.7.

With `CC(=Nc1ccc(C(F)(F)F)cc1)c1c(C)cc(=O)n(O)c1O` [Compound 517] as the compound, how does the “SI HepDES19” value read?
The value was under 1.0.

How did the “SI HepDES19” value turn out when `C/C(=N\c1ccc(Cl)c(Cl)c1)c1c(C)cc(O)n(O)c1=O` [Compound 670] was run?
Its value is 4.9.

For `Cc1cc(O)c(=O)c(O)cc1C(=O)c1ccc(-c2ccncc2)cc1` [Compound 260], which “SI HepDES19” value is on record?
Its value is 1.4.

How did the “SI HepDES19” value turn out when `Cc1cc(O)c(=O)c(O)cc1C(=O)Nc1ccccc1` [Compound 389] was run?
The value was 3.0.

`CC1=CC(O)N(O)C(O)=C1C(C)=Nc1ccccc1N` (stereo not shown) [Compound 208] was tested. Which “SI HepDES19” value did it give?
Its value is under 1.0.

How did the “SI HepDES19” value turn out when `Cc1cc(O)c(=O)c(O)cc1C(=O)c1ccc(Br)cc1` [Compound 358] was run?
Its value is 1.4.

With `O=c1c(O)cccc(SCCc2ccccc2)c1O` [Compound 704] as the compound, how does the “SI HepDES19” value read?
The value was 1.5.

Which “SI HepDES19” value does the source give for `CC(=Nc1ccccc1Cl)c1c(C)cc(=O)n(O)c1O` [Compound 668] here?
Its value is 4.0.

How did the “SI HepDES19” value turn out when `Cc1cc(O)c(=O)c(O)cc1C(=O)c1cccs1` [Compound 308] was run?
The value was 22.2.

How did the “SI HepDES19” value turn out when `O=C1C=CC(=O)c2ccccc21` [Compound 327] was run?
The value was 0.466.

With `CSc1cccc(O)c(=O)c1O` [Compound 385] as the compound, how does the “SI HepDES19” value read?
Its value is 4.0.

With `O=c1c(O)cccc(S(=O)(=O)c2cccc3ccccc23)c1O` [Compound 698] as the compound, how does the “SI HepDES19” value read?
The value was 1.2.

Which “SI HepDES19” value does the source give for `Cc1cc(O)c(=O)c(O)cc1C(=O)C1CCCCC1` [Compound 120] here?
The value was 2.7.

With `Cc1cc(O)c(=O)c(O)cc1C(=O)c1ccccc1O` [Compound 359] as the compound, how does the “SI HepDES19” value read?
Its value is 3.8.

How did the “SI HepDES19” value turn out when `CCCCNC(=O)c1cc(O)c(=O)c(O)cc1C` [Compound 1039] was run?
The value was under 1.0.

For `CCc1cccc(N=C(C)c2c(C)cc(=O)n(O)c2O)c1` [Compound 518], which “SI HepDES19” value is on record?
Its value is 4.6.

`Cc1cc(O)c(=O)c(O)cc1C(=O)c1ccccc1` [Compound 111] was tested. Which “SI HepDES19” value did it give?
Its value is 1.9.

Which “SI HepDES19” value does the source give for `Cc1cc(O)c(=O)c(O)cc1C(=O)NCc1ccc(-c2ccccc2)cc1` [Compound 539] here?
The value was under 1.0.

`CC(=O)c1c(C)cc(O)c(=O)c(O)c1-c1cccc2ccccc12` [Compound 331] was tested. Which “SI HepDES19” value did it give?
Its value is 2.3.

Which “SI HepDES19” value does the source give for `Cc1cc(O)c(=O)c(O)cc1C(=O)N[C@@H](CCC(=O)OC(C)(C)C)C(=O)OC(C)(C)C` [Compound 867] here?
Its value is under 1.0.

For `Cc1cc(O)c(=O)c(O)cc1C(=O)c1ccccc1O` [Compound 311], which “SI HepDES19” value is on record?
Its value is 2.7.

Which “SI HepDES19” value does the source give for `O=c1c(O)c(SCc2ccccc2)ccc(SCc2ccccc2)c1O` [Compound 703] here?
Its value is under 1.0.

Which “SI HepDES19” value does the source give for `COc1ccc(/C=C/C(=O)c2ccccc(=O)c2O)cc1` [Compound 342] here?
The value was 0.548.

With `Cc1cc(O)c(=O)c(O)cc1C(=O)N1CCCCC1` [Compound 390] as the compound, how does the “SI HepDES19” value read?
The value was 2.5.

`CCCCSc1ccc(SCCCC)c(O)c(=O)c1O` [Compound 694] was tested. Which “SI HepDES19” value did it give?
The value was under 1.0.

For `O=c1c(O)ccc(-c2ccco2)cc1O` [Compound 265], which “SI HepDES19” value is on record?
Its value is 1.7.

For `Cc1ccc(Sc2cccc(O)c(=O)c2O)cc1` [Compound 838], which “SI HepDES19” value is on record?
The value was 1.5.

How did the “SI HepDES19” value turn out when `Cc1cc(O)c(=O)c(O)cc1-c1ccccc1` [Compound 113] was run?
Its value is 4.6.

How did the “SI HepDES19” value turn out when `CCCCCCSc1cccc(O)c(=O)c1O` [Compound 840] was run?
The value was under 1.0.
